Data from patent US20190062383A1, “Kv1.3 Antagonists and Methods of Use” (published 2019).

Tests used:
hKCa3.1 (human) = hKCa3.1 (human) (UniProt O15554); experiment: cell-based or functional assay
hKv1.4 (human) = hKv1.4 (human) (UniProt P22459); experiment: cell-based or functional assay
hKv1.6 (human) = hKv1.6 (human) (UniProt P17658); experiment: cell-based or functional assay
hKv1.7 (human) = hKv1.7 (human) (UniProt Q96RP8); experiment: cell-based or functional assay
human Kv1.1 (human) = human Kv1.1 (human) (UniProt Q09470); experiment: cell-based or functional assay
human Kv1.2 (human) = human Kv1.2 (human) (UniProt P16389); experiment: cell-based or functional assay
human Kv1.3 (human) [1] = target: human Kv1.3 (human) (UniProt P22001); experiment: cell-based or functional assay
human Kv1.3 (human) [2] = target: human Kv1.3 (human) (UniProt P22001); experiment: competitive binding (Agitoxin-2-Cys-TAMRA), FACS, hKv1.3/HEK

synthetic peptide p261 (peptide; modification not given)
IC50, patch clamp, KCa3.1/CHO (hKCa3.1 (human)): > 100 nM | IC50, patch clamp, hKCa3.1/CHO (hKCa3.1 (human)): > 100 nM | IC50, patch clamp, hKv1.4/CHO (hKv1.4 (human)): > 300 nM | IC50, patch clamp, hKv1.6/CHO (hKv1.6 (human)): 0.32 nM | IC50, patch clamp, hKv1.7/CHO (hKv1.7 (human)): > 100 nM | IC50, patch clamp, hKv1.1/CHO (human Kv1.1 (human)): 3.3 nM | IC50, patch clamp, hKv1.2/CHO (human Kv1.2 (human)): 68 nM | IC50, T cell inhibition, primary human CD4+ T cell (human Kv1.3 (human) [1]): 0.02 nM | IC50, patch clamp, Kv1.3/human CD4+ T-cell (human Kv1.3 (human) [1]): 0.016 nM | IC50, patch clamp, hKv1.3/CHO (human Kv1.3 (human) [1]): 0.02 nM | IC50, patch clamp, hKv1.3/CHO, in 5% FCS (human Kv1.3 (human) [1]): 0.013 nM | IC50, patch clamp, primary human CD4+ T cell (human Kv1.3 (human) [1]): 0.016 nM | IL-2 inhibition IC50, human CD4+ T-cell (human Kv1.3 (human) [1]): 0.02 nM | IC50 (human Kv1.3 (human) [2]): 1.53 nM
